Pooled drug test results. Numbers come from NIAID ChemDB, via PubChem.

Common to all: whole-cell or culture tests; organism: Herpes simplex virus 1; read-out: EC50

ECn: concentration that inhibits the pathogen or its effect by n%. Neighbouring rows are from separate reports. An empty or dashed field is not shown.

smiles | read by | strain or isolate | cells | result
N#CC1=CN(COCCO)S(=O)(=O)N=C1N |  | KOS | E6SM | >400 µg/mL
COCc1cn([C@H]2C[C@H](O)[C@@H](CO)O2)c(=O)[nH]c1=O | plaque count | MMUDR-resistant | RK-13 | 1176 µM
[N-]=[N+]=N[C@@H]1[C@@H](OP(=O)(O)OC[C@H]2O[C@@H](n3cnc4c(N)ncnc43)[C@H](OP(=O)(O)OCCOCn3cnc4c(=O)[nH]c(N)nc43)[C@H]2N=[N+]=[N-])[C@H](n2cnc3c(N)ncnc32)O[C@@H]1CO | cytopathic effect | KOS | PRK | 0.7 µg/mL
O=C1C=CN(COCCO)S(=O)(=O)N1COCCO |  | VMW1837 (TK-) | E6SM | >400 µg/mL
Cn1cc(C(=O)NCc2ccc(Cl)cc2)c(=O)c2cc(CN3CCOCC3)ccc21 | plaque count | HL-3 | HFF | 2.9 µM
Nc1nc(-c2ccc(NC(=O)CN(Cc3ccncc3)C(=O)C3CCCCC3)cc2)cs1 | plaque count |  | BHK-21/C13 | 0.014 µM
COC(CI)c1cc([C@H]2C[C@H](O)[C@@H](CO)O2)c(F)cc1F | cytopathic effect | VMW 1837 | E6SM | >80 µg/mL
CSCc1cn([C@H]2C[C@H](O)[C@@H](CO)O2)c(=O)[nH]c1=O | cytopathic effect | VDX348 | PRK | 40 µg/mL
O=C(NCc1ccc(Cl)cc1)c1cn2c3c(cc(CN4CCOCC4)cc3c1=O)OC(c1cccnc1)C2 | plaque count | DM2.1 (ACV-resistant) | HFF | 2.2 µM
CCc1cn([C@H]2C[C@H](O)[C@@H](CO)O2)c(=O)[nH]c1=O | cytopathic effect | McIntyre | PRK | 1.6 µg/mL
CC(=O)OCCOCN1C(=O)C=CN(COCCO)S1(=O)=O |  | B206 (TK-) | E6SM | >400 µg/mL
O=c1[nH]c(=O)n([C@H]2C[C@H](O)[C@@H](CO)O2)cc1F | cytopathic effect | McIntyre | PRK | 10 µg/mL
Nc1nc2c(ncn2CCC(CO)CO)c(=O)[nH]1 | plaque count | KT1 | VERO | 2.3 µM
CC(=O)OCCOCN1C=CC(=O)NS1(=O)=O |  | KOS | E6SM | >400 µg/mL
O=Cc1cn([C@H]2C[C@H](O)[C@@H](CO)O2)c(=O)[nH]c1=O | cytopathic effect | VEX149 | PRK | 0.4 µg/mL
C/C(O)=C1\C(=N)N(COCCO)S(=O)(=O)N=C1N |  | VMW1837 (TK-) | E6SM | >400 µg/mL
O=c1[nH]c(=O)n([C@H]2C[C@H](O)[C@@H](CO)O2)cc1I | cytopathic effect | F | PRK | 0.15 µg/mL
OC[C@H]1O[C@@H](c2cc(/C=C/I)c(F)cc2F)C[C@@H]1O | cytopathic effect | VMW1837 (TK-) | E6SM | >400 µg/mL
Nc1ncnc2c1ncn2C[C@H](O)CO | cytopathic effect | KOS | PRK | >400 µg/mL
CCCc1cn([C@H]2C[C@H](O)[C@@H](COP(=O)(O)O)O2)c(=O)[nH]c1=O | cytopathic effect | B2006 (TK-) | PRK | >797 µg/mL
Nc1nc2c(ncn2C[C@]2(CO)C[C@H]2CO)c(=O)[nH]1 | plaque count | KOS (TK-) | MRC-5 | 82 µg/mL
[N-]=[N+]=NCc1cn([C@H]2C[C@H](O)[C@@H](CO)O2)c(=O)[nH]c1=O | cytopathic effect | VEX142 | PRK | 7 µg/mL
OC[C@H]1O[C@@H](c2cc(C#CBr)c(F)cc2F)C[C@@H]1O | cytopathic effect | KOS | E6SM | 9.6 µg/mL
OC[C@H]1O[C@@H](c2cc(C(O)CBr)c(F)cc2F)C[C@@H]1O | cytopathic effect | KOS (TK-) | E6SM | >3.2 µg/mL
Nc1ncnc2c1ncn2C[C@@H](CO)OCP(=O)(O)O | cytopathic effect | 1 (PAA-resistant) | PRK | 0.3 µg/mL
CCc1cc([C@H]2C[C@H](O)[C@@H](CO)O2)c(F)cc1F | cytopathic effect | McIntyre | E6SM | >400 µg/mL

A second listing of 2 rows from above:

CCc1cc([C@H]2C[C@H](O)[C@@H](CO)O2)c(F)cc1F ; read by: cytopathic effect ; strain or isolate: McIntyre ; cells: E6SM ; result: >400 µg/mL
CSCc1cn([C@H]2C[C@H](O)[C@@H](CO)O2)c(=O)[nH]c1=O ; read by: cytopathic effect ; strain or isolate: VDX348 ; cells: PRK ; result: 40 µg/mL